A mixed list of measured activities; the numbers were collected in NIAID ChemDB.

Shared fields: toxicity to cultured cells; cell line: HepG2 2.2.15; measure: CC50

CCn is the concentration with n% toxicity to the cells.

smiles | read by | result
CN(C)C(=O)c1nc2c(N)ncnc2n1[C@H]1CC[C@@H](CO)C1 | visual reading | >200 µM
O=C(CNc1ccccc1)NNC(=S)Nc1ccccc1 | - | >100 µM
COC1OC(CSc2ncc(C)c(=O)[nH]2)C(O)C1O | - | >100 µM
COC(=O)[C@H](C)NP(=O)(OC[C@@H]1O[C@H](n2cnc3c(N)ncnc32)CC1F)Oc1ccccc1 | - | >200 µM
O=c1cnc2ccccc2n1CC(O)CO | - | >10 µM
COC1OC(CSc2nc(C)cc(=O)[nH]2)C(O)C1O | - | >100 µM
Nc1ncnc2c1ncn2[C@H]1CC(F)[C@@H](CO)O1 | - | >200 µM
C=CCn1c(=O)c(/C(=N\Nc2ccccc2)C(O)C(O)CO)nc2ccccc21 | MTT | >100 µM
COC(=O)[C@H](C)NP(=O)(OC[C@H]1O[C@@H](n2cnc3c(N)ncnc32)CC1F)Oc1ccccc1 | - | 7 µM
C/C(=N\N=C(N)N)c1ccc(NC(=O)Nc2cc(/C(C)=N/N=C(N)N)cc(/C(C)=N/N=C(N)N)c2)cc1 | - | 63 µM
CCOC(=O)CSc1nnc(CNc2ccc(F)cc2)n1-c1ccccc1 | - | >100 µM
Nc1ncnc2c1nc(Br)n2[C@H]1CC[C@@H](CO)C1 | visual reading | 48 µM
CNc1ncnc2c1ncn2[C@H]1CC(F)[C@@H](COP(=O)(N[C@@H](C)C(=O)OC)Oc2ccccc2)O1 | - | 58 µM
C=CCn1c(=O)c(-c2cc(CO)n(-c3ccccc3)n2)nc2ccccc21 | MTT | >100 µM
O=C(CSc1nnc(CNc2ccccc2)n1-c1ccccc1)NN=CC(O)C(O)C(O)C(O)CO | - | >100 µM
CC(=O)N[C@H]1C(O[C@@H]2[C@@H](O)[C@H](O)[C@@H](O)C[C@H]2OC(=O)[C@H]2C[C@H](O)[C@]3(O)[C@@H](O)[C@]4(C[C@H](OC(=O)c5ccc(O)cc5)[C@H](C)CO4)O[C@]3(O)C2)O[C@H](CO)[C@@H](O)[C@@H]1O | MTT | 51.4 µM
NNC(=O)CSc1nnc(CNc2ccccc2)n1-c1ccccc1 | - | >100 µM
Nc1ncnc2c1ccn2[C@@H]1C=C[C@H](CO)C1 | - | 50 µM
Cc1nc2c(N)ncnc2n1[C@H]1CC[C@@H](CO)C1 | visual reading | >200 µM
CCc1c(Sc2cc(C)cc(C)c2)[nH]c(=O)[nH]c1=O | - | >100 µM
C[C@@H]1CO[C@@]2(C[C@@H]1OC(=O)c1ccc(O)cc1)O[C@]1(O)C[C@@H](C(=O)O[C@@H]3C[C@H](O)[C@@H](O)[C@H](O)[C@H]3OC3O[C@H](CO)[C@@H](O)[C@H](O)[C@H]3O)C[C@H](O)[C@]1(O)[C@H]2O | MTT | 60 µM
Cc1cc(C)cc(Sc2cc(=O)[nH]c(=O)[nH]2)c1 | - | >100 µM
CC(=O)N[C@H]1C(O[C@@H]2[C@@H](O)[C@H](O)[C@@H](O)C[C@H]2OC(=O)[C@H]2C[C@H](O)[C@@]3(O)[C@@H](C2)O[C@@]2(C[C@H](OC(=O)c4ccccc4)[C@H](C)CO2)[C@@H]3O)O[C@H](CO)[C@@H](O)[C@@H]1O | MTT | 24.8 µM
COC(=O)[C@H](C)NP(=O)(OC[C@H]1O[C@@H](n2ccc3c(N)ncnc32)CC1F)Oc1ccccc1 | - | 149 µM
Nc1ncnc2c1nc(Cl)n2[C@H]1CC[C@@H](CO)C1 | visual reading | >200 µM
CN(/C=C1\SC(=O)NC1=O)Cc1cccc2ccccc12 | - | 46.78 µM
CCOC(=O)CSc1nnc(CNc2ccccc2)n1-c1ccccc1 | - | >100 µM
COC1OC(Cn2ccc(=O)nc2SC)C(O)C1O | - | >100 µM
CCc1c(Sc2cc(Cl)ccc2C)[nH]c(=O)[nH]c1=O | - | >100 µM
COC(=O)C(C)(C)NP(=O)(OC[C@@H]1C=C[C@H](n2ccc3c(N)ncnc32)C1)Oc1ccccc1 | - | 64 µM
Cc1ccc(NCc2nnc(Sc3ccccc3)o2)cc1 | - | >100 µM
CCCc1cc(=O)[nH]c(SCC2OC(OC)C(O)C2O)n1 | - | >100 µM
O=C(CSc1nnc(CNc2ccc(F)cc2)n1-c1ccccc1)NN=CC(O)C(O)C(O)CO | - | >100 µM
Cc1nc2ccccc2n(CC(O)CO)c1=O | - | >10 µM
O=C(CSc1nnc(CNc2ccccc2)n1-c1ccccc1)NN=CC(O)C(O)C(O)CO | - | >100 µM
C[C@H](NP(=O)(OC[C@@H]1C=C[C@H](n2ccc3c(N)ncnc32)C1)Oc1ccccc1)C(=O)OCc1ccccc1 | - | 18 µM

Repeating the final 3 entries:

| smiles | read by | result |
|---|---|---|
| Cc1nc2ccccc2n(CC(O)CO)c1=O | - | >10 µM |
| O=C(CSc1nnc(CNc2ccccc2)n1-c1ccccc1)NN=CC(O)C(O)C(O)CO | - | >100 µM |
| C[C@H](NP(=O)(OC[C@@H]1C=C[C@H](n2ccc3c(N)ncnc32)C1)Oc1ccccc1)C(=O)OCc1ccccc1 | - | 18 µM |

Rows are shuffled and stem from different studies. Blank or dashed fields: not listed here.